Experimental data reported in patent publication US9428542B2, “Lupane triterpenoid derivatives and pharmaceutical use thereof” (priority 2012, dated 2016).

System: HIV-1IIIB
Assay: HIV-1 full replication assay (HIV-1IIIB-infected MT-2 cells, supernatant read out on TZM-bl cells, β-Gal)
Format: cell-based
Details: Therapeutic Index (TI)=TC50/IC50
Description: The antiviral activity of the compounds of the present invention was determined in a HIV-1 full replication assay.
In this assay, MT-2 cells that are infected with HIV-1IIIB were co-cultured with different concentration of the tested compounds for 3 days and then supernatant is transferred into new 384-well plates containing TZM-bl cells (also called JC53-bl). TZM-bl cells that could be infected by various kinds of HIV-1 strains stably express a great amount of HIV-1 receptor, co-receptor CD4 molecular, and co-receptor CXCR4 and CCR5. TZM-bl cells harbor LTR-luciferase and β-gal two report genes. The expression of luciferase and β-gal reporter directed by HIV-1 LTR can be activated by Tat protein generated after HIV infection, and the quantity of expression is proportional to the quantity of HIV-1. Compounds that interfere with virus replication in MT-2 cells, maturation of the virus, or post-entry steps in the HIV lifecycle decrease the luciferase signal or β-gal signal. In this experiment, BVM (Bevirimat, PA-457) is used as a positive control drug.
Method for Inhibiting HIV-1 Replication Assay:
The MT-2 cells are infected at a Multiciplicity (MOI) of 0.01 TCID50, and then the MT-2 cells suspension was diluted to a needed concentration. 90 μl of the MT-2 cells suspension from above was added into 384-well plates containing 10 μl of the tested compounds.
Compounds were dissolved in DMSO and tested as 11 points 3-fold serial dilutions. After addition of cells to compound plates, plates were placed to humidified 5% CO2 37 incubator for 3 days. 10 μl of cells culture supernatant from the incubated plates was transferred into new black 384-well plates.
Adjusted the TZMb1 cells concentration and 40 μl of TZMb1 cells was added into each well in the black 384-well plates. After addition of the TZMb1 cells to the black plates, black plates were placed to humidified 5% CO2 37 incubator for 24 h, then β-Gal activity was measured.
The anti viral activity %=(measured number-lowest mean number)/(highest mean number-lowest mean number)×100. The IC50 values were calculated by Median Equation and the IC curve was generated by Graphpad Prism V 5.03.
TC50 is referred to the toxicity in MT-2 cells by the compounds tested at 50% concentration; IC50 is referred to the inhibiting HIV-1IIIB replication in MT-2 cells by the compounds tested at 50% concentration; Therapeutic Index (TI)=TC50/IC50.

For `CC(C)C1=C2[C@H]3CC[C@@H]4[C@@]5(C)CC[C@H](OC(=O)CC(C)(C)C(=O)O)C(C)(C)[C@@H]5CC[C@@]4(C)[C@]3(C)CC[C@@]2(c2cc(=O)n(-c3ccc(Cl)cc3)n2C)CC1` [Compound 96-1], which TI is on record?
The TI was 525.

For `CC(C)C1=C2[C@H]3CC[C@@H]4[C@@]5(C)CC[C@H](OC(=O)CC(C)(C)C(=O)O)C(C)(C)[C@@H]5CC[C@@]4(C)[C@]3(C)CC[C@@]2(c2cc(=O)n(-c3ccc(Cl)cc3)n2C)CC1=O` [Compound 98-1], which TI is on record?
The TI was 14117.

How did the TI turn out when `COc1ccc(-n2c(=O)cc([C@@]34CC[C@]5(C)[C@H](CC[C@@H]6[C@@]7(C)CC[C@H](OC(=O)CC(C)(C)C(=O)O)C(C)(C)[C@@H]7CC[C@]65C)C3=C(C(C)C)C(=O)C4)n2C)cn1` [Compound 98-2] was run?
The TI was 14667.

How did the TI turn out when `CC(C)C1=C2[C@H]3CC[C@@H]4[C@@]5(C)CC[C@H](OC(=O)CC(C)(C)C(=O)O)C(C)(C)[C@@H]5CC[C@@]4(C)[C@]3(C)CC[C@@]2(c2cc(=O)n(-c3ccc(F)cc3)n2C)CC1=O` [Compound 98-3] was run?
Its TI is 91304.

How did the TI turn out when `CC(C)C1=C2[C@H]3CC[C@@H]4[C@@]5(C)CC[C@H](OC(=O)CC(C)(C)C(=O)O)C(C)(C)[C@@H]5CC[C@@]4(C)[C@]3(C)CC[C@@]2(c2cc(=O)n(-c3ccc(C#N)cc3)n2C)CC1=O` [Compound 98-4] was run?
The TI was 44444.

Which TI does the source give for `CCn1c([C@@]23CC[C@]4(C)[C@H](CC[C@@H]5[C@@]6(C)CC[C@H](OC(=O)CC(C)(C)C(=O)O)C(C)(C)[C@@H]6CC[C@]54C)C2=C(C(C)C)C(=O)C3)cc(=O)n1-c1ccc(Cl)cc1` [Compound 98-5] here?
Its TI is 76471.

`CCn1c([C@@]23CC[C@]4(C)[C@H](CC[C@@H]5[C@@]6(C)CC[C@H](OC(=O)CC(C)(C)C(=O)O)C(C)(C)[C@@H]6CC[C@]54C)C2=C(C(C)C)C(=O)C3)cc(=O)n1-c1ccc(Cl)cn1` [Compound 98-6] was tested. Which TI did it give?
Its TI is 76471.

How did the TI turn out when `CC(C)C1=C2[C@H]3CC[C@@H]4[C@@]5(C)CC[C@H](OC(=O)CC(C)(C)C(=O)O)C(C)(C)[C@@H]5CC[C@@]4(C)[C@]3(C)CC[C@@]2(c2cc(=O)n(-c3ccc(Cl)cn3)n2C)CC1=O` [Compound 98-7] was run?
Its TI is 1176471.

How did the TI turn out when `CC(C)C1=C2[C@H]3CC[C@@H]4[C@@]5(C)CC[C@H](OC(=O)CC(C)(C)C(=O)O)C(C)(C)[C@@H]5CC[C@@]4(C)[C@]3(C)CC[C@@]2(c2nnc(-c3ccc(Cl)cc3)s2)CC1=O` [Compound 102] was run?
Its TI is 56.7.

With `CC(C)C1=C2[C@H]3CC[C@@H]4[C@@]5(C)CC[C@H](OC(=O)CC(C)(C)C(=O)O)C(C)(C)[C@@H]5CC[C@@]4(C)[C@]3(C)CC[C@@]2(Cc2nc(-c3ccc(Cl)cc3)no2)CC1=O` [Compound 108-2] as the compound, how does the TI read?
The TI was 163.

With `CC(C)C1=C2[C@H]3CC[C@@H]4[C@@]5(C)CC[C@H](OC(=O)CC(C)(C)C(=O)O)C(C)(C)[C@@H]5CC[C@@]4(C)[C@]3(C)CC[C@@]2(Cc2nnc(-c3ccc(Cl)cc3)n2CCN(C)C)CC1=O` [Compound 116-1] as the compound, how does the TI read?
Its TI is 205882.

How did the TI turn out when `CNCCn1c(C[C@@]23CC[C@]4(C)[C@H](CC[C@@H]5[C@@]6(C)CC[C@H](OC(=O)CC(C)(C)C(=O)O)C(C)(C)[C@@H]6CC[C@]54C)C2=C(C(C)C)C(=O)C3)nnc1-c1ccc(Cl)cc1` [Compound 116-2] was run?
Its TI is 5625.

With `CC(C)C1=C2[C@H]3CC[C@@H]4[C@@]5(C)CC[C@H](OC(=O)CC(C)(C)C(=O)O)C(C)(C)[C@@H]5CC[C@@]4(C)[C@]3(C)CC[C@@]2(c2nnc(-c3ccc(Cl)cc3)n2CCN(C)C)CC1=O` [Compound 116-3] as the compound, how does the TI read?
Its TI is 60000.

With `CC(C)C1=C2[C@H]3CC[C@@H]4[C@@]5(C)CC[C@H](OC(=O)CC(C)(C)C(=O)O)C(C)(C)[C@@H]5CC[C@@]4(C)[C@]3(C)CC[C@@]2(Cc2nnc(-c3ccc(Cl)cc3)n2CCN)CC1=O` [Compound 116-4] as the compound, how does the TI read?
Its TI is 13200.

`CC(C)C1=C2[C@H]3CC[C@@H]4[C@@]5(C)CC[C@H](OC(=O)CC(C)(C)C(=O)O)C(C)(C)[C@@H]5CC[C@@]4(C)[C@]3(C)CC[C@@]2([C@@H](O)c2nnc(-c3ccc(Cl)cc3)o2)CC1=O` [Compound 127-1] was tested. Which TI did it give?
The TI was 125000.

With `CC(C)C1=C2[C@H]3CC[C@@H]4[C@@]5(C)CC[C@H](OC(=O)CC(C)(C)C(=O)O)C(C)(C)[C@@H]5CC[C@@]4(C)[C@]3(C)CC[C@@]2([C@H](O)c2nnc(-c3ccc(Cl)cc3)o2)CC1=O` [Compound 127-2] as the compound, how does the TI read?
The TI was 1800.

With `CC(C)C1=C2[C@H]3CC[C@@H]4[C@@]5(C)CC[C@H](OC(=O)CC(C)(C)C(=O)O)C(C)(C)[C@@H]5CC[C@@]4(C)[C@]3(C)CC[C@@]2([C@@H](O)c2nnc(-c3ccc(Cl)cn3)o2)CC1=O` [Compound 127-3] as the compound, how does the TI read?
Its TI is 55000.

With `CC(C)C1=C2[C@H]3CC[C@@H]4[C@@]5(C)CC[C@H](OC(=O)CC(C)(C)C(=O)O)C(C)(C)[C@@H]5CC[C@@]4(C)[C@]3(C)CC[C@@]2([C@H](O)c2nnc(-c3ccc(Cl)cn3)o2)CC1=O` [Compound 127-4] as the compound, how does the TI read?
Its TI is 5263.

`CC(C)C1=C2[C@H]3CC[C@@H]4[C@@]5(C)CC[C@H](OC(=O)CC(C)(C)C(=O)O)C(C)(C)[C@@H]5CC[C@@]4(C)[C@]3(C)CC[C@@]2([C@@H](O)c2nnc(-c3ncc(Cl)cn3)o2)CC1=O` [Compound 127-5] was tested. Which TI did it give?
Its TI is 38000.

With `CC(C)C1=C2[C@H]3CC[C@@H]4[C@@]5(C)CC[C@H](OC(=O)CC(C)(C)C(=O)O)C(C)(C)[C@@H]5CC[C@@]4(C)[C@]3(C)CC[C@@]2(c2nnc(Nc3ccc(Cl)cc3)o2)CC1=O` [Compound 133-1] as the compound, how does the TI read?
The TI was 2100.

For `CC(C)C1=C2[C@H]3CC[C@@H]4[C@@]5(C)CC[C@H](OC(=O)CC(C)(C)C(=O)O)C(C)(C)[C@@H]5CC[C@@]4(C)[C@]3(C)CC[C@@]2(c2nnc(N(CCN(C)C)c3ccc(Cl)cc3)o2)CC1=O` [Compound 133-2], which TI is on record?
Its TI is 276471.

For `CC(C)C1=C2[C@H]3CC[C@@H]4[C@@]5(C)CC[C@H](OC(=O)CC(C)(C)C(=O)O)C(C)(C)[C@@H]5CC[C@@]4(C)[C@]3(C)CC[C@@]2(Nc2nnc(-c3ccc(Cl)cc3)o2)CC1=O` [Compound 141-1], which TI is on record?
Its TI is 4727.

`CC(C)C1=C2[C@H]3CC[C@@H]4[C@@]5(C)CC[C@H](OC(=O)CC(C)(C)C(=O)O)C(C)(C)[C@@H]5CC[C@@]4(C)[C@]3(C)CC[C@@]2(Nc2nnc(-c3ccc(Cl)cn3)o2)CC1=O` [Compound 141-2] was tested. Which TI did it give?
The TI was 92307.

With `CC(C)C1=C2[C@H]3CC[C@@H]4[C@@]5(C)CC[C@H](OC(=O)CC(C)(C)C(=O)O)C(C)(C)[C@@H]5CC[C@@]4(C)[C@]3(C)CC[C@@]2(Nc2nnc(-c3ncc(Cl)cn3)o2)CC1=O` [Compound 141-3] as the compound, how does the TI read?
The TI was 12941.

`CC(C)C1=C2[C@H]3CC[C@@H]4[C@@]5(C)CC[C@H](OC(=O)CC(C)(C)C(=O)O)C(C)(C)[C@@H]5CC[C@@]4(C)[C@]3(C)CC[C@@]2(c2cc(=O)n(-c3ccc(Cl)cc3)n2CCN)CC1=O` [Compound 155-1] was tested. Which TI did it give?
Its TI is 48750.

With `CC(C)C1=C2[C@H]3CC[C@@H]4[C@@]5(C)CC[C@H](OC(=O)CC(C)(C)C(=O)O)C(C)(C)[C@@H]5CC[C@@]4(C)[C@]3(C)CC[C@@]2(c2cc(=O)n(-c3ccc(Cl)cc3)n2CCN(C)C)CC1=O` [Compound 156-1] as the compound, how does the TI read?
The TI was 111765.
